Pooled drug test results. Numbers come from NIAID ChemDB, via PubChem.

Shared fields: growth or infection tests; agent: Aspergillus fumigatus; measure: zone

Blank or dashed fields: not listed here. Conditions beyond the fields shown may differ between rows. Zones are inhibition diameters on agar. Two numbers with a dash give a range or band.

| structure | strain or isolate | dose | method | result |
|---|---|---|---|---|
| COC(=O)N[C@H](C(=O)NN(CC[C@]1(Cc2ccccc2)C(=O)N(C2c3ccccc3C[C@H]2O)C[C@@H]1O)Cc1ccc(Br)cc1)C(C)(C)C | RCMB 002003 | 10 mg/mL | agar diffusion / agar | 18.8 mm |
| Cc1ccc(NC(=O)c2ccccc2N)cc1 | RCMB 02003 | 25 µg/mL | agar diffusion | 12.2 mm |
| C[C@@H]1[C@@H](COCC(=O)O)C[C@@H](O[C@H]2[C@H](O)[C@@H](N(Cc3ccc(N(C)C)cc3)CC(O)C[N+](C)(C)C)[C@H](O[C@H]3[C@H](O)[C@@H](N(Cc4ccc(N(C)C)cc4)CC(O)C[N+](C)(C)C)[C@H](C)O[C@@H]3COCC(=O)O)O[C@@H]2COCC(=O)O)[C@H](N(Cc2ccc(N(C)C)cc2)CC(O)C[N+](C)(C)C)[C@H]1O | RCMB 02568 | 1 mg/mL | agar diffusion | 21.2 mm |
| COC(=O)N[C@H](C(=O)NN(CCC[C@@]1(Cc2ccccc2)C(=O)N(C2c3ccccc3C[C@H]2O)C[C@H]1O)Cc1ccc(-c2cccnc2)cc1)C(C)(C)C | RCMB 002003 | 10 mg/mL | agar diffusion / agar | 18.8 mm |
| N#Cc1ccc(Nc2nc(Oc3ccnc4ccccc34)nc(N3CCN(c4ccccc4)CC3)n2)cc1C(F)(F)F | MTCC 343 | 100 µg/mL | agar | <10 mm |
| CCCCCCCCN(CC(O)C[N+](C)(C)C)[C@@H]1[C@@H](O)[C@H](O[C@@H]2O[C@H](COCC(=O)O)[C@@H](O[C@@H]3C[C@H](COCC(=O)O)[C@@H](C)[C@H](O)[C@H]3N(CCCCCCCC)CC(O)C[N+](C)(C)C)[C@H](O)[C@H]2N(CCCCCCCC)CC(O)C[N+](C)(C)C)[C@@H](COCC(=O)O)O[C@H]1C | RCMB 02568 | 1 mg/mL | agar diffusion | 16.7 mm |
| COC(=O)N[C@H](C(=O)NN(CCC[C@@]1(Cc2ccccc2)C(=O)N(C2c3ccccc3C[C@H]2O)C[C@H]1O)Cc1ccc(-c2ccccn2)cc1)C(C)(C)C | RCMB 002003 | 10 mg/mL | agar diffusion / agar | 18.8 mm |
| CCC(C)CCCCCCCCCCC(=O)N[C@H]1C[C@@H](O)[C@@H](OC)NC(=O)C2[C@@H](O)[C@@H](C)CN2C(=O)C(CO)NC(=O)C([C@H](O)C(O)c2ccc(O)cc2)NC(=O)NC(=O)[C@@H]2C[C@@H](O)CN2C(=O)[C@H]([C@@H](C)O)NC1=O | AF-1 | 2 mg/mL | agar | 24–37 mm |
| CCN1CCN(c2nc(Nc3ccc(C#N)c(C(F)(F)F)c3)nc(Oc3cccc4cccnc34)n2)CC1 | MTCC 343 | 100 µg/disc | agar diffusion / agar | 20 mm |
| CCC(C)CCCCCCCCCCC(=O)N[C@H]1C[C@@H](O)[C@@H](NCCN2CCOCC2)NC(=O)C2[C@@H](O)[C@@H](C)CN2C(=O)C(CO)NC(=O)C([C@H](O)C(O)c2ccc(O)cc2)NC(=O)NC(=O)[C@@H]2C[C@@H](O)CN2C(=O)[C@H]([C@@H](C)O)NC1=O | AF-1 | 2 mg/mL | agar | 20 mm |
| OC(COc1ccccc1/C=N\n1c(-c2cccnc2)n[nH]c1=S)COc1ccccc1/C=N\n1c(-c2cccnc2)n[nH]c1=S | RCMB 002008 | 5 mg/mL | agar diffusion / agar | 1–5 mm |
| N#Cc1ccc(Nc2nc(Oc3cccc4cccnc34)nc(N3CCOCC3)n2)cc1C(F)(F)F | MTCC 343 | 100 µg/disc | agar diffusion / agar | 20 mm |
| COc1cccc(CN(CC(O)C[N+](C)(C)C)[C@@H]2[C@@H](O)[C@H](O[C@@H]3O[C@H](COCC(=O)O)[C@@H](O[C@@H]4C[C@H](COCC(=O)O)[C@@H](C)[C@H](O)[C@H]4N(Cc4cccc(OC)c4)CC(O)C[N+](C)(C)C)[C@H](O)[C@H]3N(Cc3cccc(OC)c3)CC(O)C[N+](C)(C)C)[C@@H](COCC(=O)O)O[C@H]2C)c1 | RCMB 02568 | 1 mg/mL | agar diffusion | 13.6 mm |
| CCN1CCN(c2nc(Nc3ccc(C#N)c(C(F)(F)F)c3)nc(Oc3ccnc4ccccc34)n2)CC1 | MTCC 343 | 100 µg/mL | agar | <10 mm |
| COc1ccc(CN(CC(O)C[N+](C)(C)C)[C@@H]2[C@@H](O)[C@H](O[C@@H]3O[C@H](COCC(=O)O)[C@@H](O[C@@H]4C[C@H](COCC(=O)O)[C@@H](C)[C@H](O)[C@H]4N(Cc4ccc(OC)c(OC)c4)CC(O)C[N+](C)(C)C)[C@H](O)[C@H]3N(Cc3ccc(OC)c(OC)c3)CC(O)C[N+](C)(C)C)[C@@H](COCC(=O)O)O[C@H]2C)cc1OC | RCMB 02568 | 1 mg/mL | agar diffusion | 13.9 mm |
| CCC(C)CCCCCCCCCCC(=O)N[C@H]1C[C@@H](O)[C@@H](Sc2ccccc2)NC(=O)C2[C@@H](O)[C@@H](C)CN2C(=O)C(CO)NC(=O)C([C@H](O)C(O)c2ccc(O)cc2)NC(=O)NC(=O)[C@@H]2C[C@@H](O)CN2C(=O)[C@H]([C@@H](C)O)NC1=O | AF-1 | 5 mg/mL | agar | 21 mm |
| N#Cc1ccc(Nc2nc(Oc3cccc4cccnc34)nc(N3CCN(c4ccccn4)CC3)n2)cc1C(F)(F)F | MTCC 343 | 100 µg/disc | agar diffusion / agar | 24 mm |
| CC(=O)c1ccc(-c2nn(-c3ccc(C)cc3)cc2-c2ccc([N+](=O)[O-])cc2)nc1C | - | 5 mg/mL | agar diffusion / agar | 7 mm |
| Nc1ccccc1C(=O)Nc1ccc(CC(=O)O)cc1 | RCMB 02003 | 25 µg/mL | agar diffusion | 11.2 mm |
| C[C@@H]1[C@@H](COCC(=O)O)C[C@@H](O[C@H]2[C@H](O)[C@@H](N(Cc3ccc(Cl)cc3Cl)CC(O)C[N+](C)(C)C)[C@H](O[C@H]3[C@H](O)[C@@H](N(Cc4ccc(Cl)cc4Cl)CC(O)C[N+](C)(C)C)[C@H](C)O[C@@H]3COCC(=O)O)O[C@@H]2COCC(=O)O)[C@H](N(Cc2ccc(Cl)cc2Cl)CC(O)C[N+](C)(C)C)[C@H]1O | RCMB 02568 | 1 mg/mL | agar diffusion | 17.9 mm |
| N#Cc1ccc(Nc2nc(Oc3ccnc4ccccc34)nc(N3CCOCC3)n2)cc1C(F)(F)F | MTCC 343 | 100 µg/mL | agar | <10 mm |
| Cc1ccc(-n2cc(-c3ccc([N+](=O)[O-])cc3)c(-c3ccn[nH]3)n2)cc1 | - | 5 mg/mL | agar diffusion / agar | 9 mm |
| CCC(C)CCCCCCCCCCC(=O)N[C@H]1C[C@@H](O)[C@@H](NCCN2CCOCC2)NC(=O)C2[C@@H](O)[C@@H](C)CN2C(=O)C(CO)NC(=O)C([C@H](O)C(NCCN2CCOCC2)c2ccc(O)cc2)NC(=O)NC(=O)[C@@H]2C[C@@H](O)CN2C(=O)[C@H]([C@@H](C)O)NC1=O | AF-1 | 2 mg/mL | agar | 13 mm |
| C[C@@H]1[C@@H](COCC(=O)O)C[C@@H](O[C@H]2[C@H](O)[C@@H](N(Cc3ccc([N+](=O)[O-])cc3)CC(O)C[N+](C)(C)C)[C@H](O[C@H]3[C@H](O)[C@@H](N(Cc4ccc([N+](=O)[O-])cc4)CC(O)C[N+](C)(C)C)[C@H](C)O[C@@H]3COCC(=O)O)O[C@@H]2COCC(=O)O)[C@H](N(Cc2ccc([N+](=O)[O-])cc2)CC(O)C[N+](C)(C)C)[C@H]1O | RCMB 02568 | 1 mg/mL | agar diffusion | 20.5 mm |
| COC(=O)N[C@H](C(=O)NN(CC[C@@]1(Cc2ccccc2)C(=O)N(C2c3ccccc3C[C@H]2O)C[C@H]1O)Cc1ccc(-c2cccnc2)cc1)C(C)(C)C | RCMB 002003 | 10 mg/mL | agar diffusion / agar | 18.8 mm |
| N#Cc1ccc(Nc2nc(Oc3cccc4cccnc34)nc(N3CCCCC3)n2)cc1C(F)(F)F | MTCC 343 | 100 µg/disc | agar diffusion / agar | 21 mm |
| CCC(C)CCCCCCCCCCC(=O)N[C@H]1C[C@@H](O)[C@@H](N=[N+]=[N-])NC(=O)C2[C@@H](O)[C@@H](C)CN2C(=O)C(CO)NC(=O)C([C@H](O)C(N=[N+]=[N-])c2ccc(O)cc2)NC(=O)NC(=O)[C@@H]2C[C@@H](O)CN2C(=O)[C@H]([C@@H](C)O)NC1=O | AF-1 | 1 mg/mL | agar | 17 mm |
| Cc1ccc(-n2cc(-c3ccc([N+](=O)[O-])cc3)c(C(=O)/C=C/N(C)C)n2)cc1 | - | 1.25 mg/mL | agar diffusion / agar | 0 mm |
| COc1ccc(NC(=O)c2ccccc2N)cc1 | RCMB 02003 | 25 µg/mL | agar diffusion | 19.7 mm |
| CCC(C)CCCCCCCCCCC(=O)N[C@H]1C[C@@H](O)[C@@H](O)NC(=O)C2[C@@H](O)[C@@H](C)CN2C(=O)C(CO)NC(=O)C([C@H](O)C(O)c2ccc(O)cc2)NC(=O)NC(=O)[C@@H]2C[C@@H](O)CN2C(=O)[C@H]([C@@H](C)O)NC1=O | AF-1 | 2 mg/mL | agar | 35 mm |
| C[C@H]1[C@H](O)[C@@H](C)/C=C/C=C/C=C/C=C/C=C/C=C/C=C/[C@H](O[C@@H]2O[C@H](C)[C@@H](O)[C@H](N)[C@@H]2O)C[C@@H]2O[C@](O)(C[C@@H](O)C[C@@H](O)CC[C@H](O)[C@@H](O)C[C@@H](O)CC(=O)O[C@H]1C)C[C@H](O)[C@H]2C(=O)O | - | 1 mg/disc | agar diffusion | 0 mm |
| CC(=O)C1=NN(c2ccccc2)C2=Nc3nccc(-c4nn(-c5ccccc5)cc4-c4ccc([N+](=O)[O-])cc4)c3C(=O)C12 | - | 1.25 mg/mL | agar diffusion / agar | 3 mm |
| COC(=O)N[C@H](C(=O)NN(CC[C@@]1(Cc2ccccc2)C(=O)N(C2c3ccccc3C[C@H]2O)C[C@H]1O)Cc1ccc(Br)cc1)C(C)(C)C | RCMB 002003 | 10 mg/mL | agar diffusion / agar | 18.8 mm |

The last 3 rows once more:

structure	strain or isolate	dose	method	result
C[C@H]1[C@H](O)[C@@H](C)/C=C/C=C/C=C/C=C/C=C/C=C/C=C/[C@H](O[C@@H]2O[C@H](C)[C@@H](O)[C@H](N)[C@@H]2O)C[C@@H]2O[C@](O)(C[C@@H](O)C[C@@H](O)CC[C@H](O)[C@@H](O)C[C@@H](O)CC(=O)O[C@H]1C)C[C@H](O)[C@H]2C(=O)O	-	1 mg/disc	agar diffusion	0 mm
CC(=O)C1=NN(c2ccccc2)C2=Nc3nccc(-c4nn(-c5ccccc5)cc4-c4ccc([N+](=O)[O-])cc4)c3C(=O)C12	-	1.25 mg/mL	agar diffusion / agar	3 mm
COC(=O)N[C@H](C(=O)NN(CC[C@@]1(Cc2ccccc2)C(=O)N(C2c3ccccc3C[C@H]2O)C[C@H]1O)Cc1ccc(Br)cc1)C(C)(C)C	RCMB 002003	10 mg/mL	agar diffusion / agar	18.8 mm